Compound potency records, mixed from different reports. Data source: NIAID ChemDB in PubChem.

Shared fields: tests in culture; agent: HIV-1; read-out: EC50

Neighbouring rows are from separate reports.

compound	strain	mutations	cells	method	conditions	result
O=c1nc(N=CN2CCCC2)ccn1[C@H]1C[C@H](CO)[C@@H](CO)O1	IIIB	-	MT-4	XTT	-	7.7 µM
CC(C)C1=C2[C@H]3CC[C@@H]4[C@@]5(C)CC[C@H](OC(=O)[C@H]6C[C@@H](C(=O)O)C6(C)C)C(C)(C)[C@@H]5CC[C@@]4(C)[C@]3(C)CC[C@@]2([C@@H](O)CNCc2ccc(Cl)cc2)CC1=O	92HT599	-	MT-2	p24 / ELISA	-	<1 µM
CCN(C(=O)C(=O)N(C)C)[C@H]1CC[C@H](OC)Cn2c1nc(C(=O)NCc1ccc(F)cc1)c(O)c2=O	-	Y143R	HeLa P4-2	single cycle	-	>0.1 µM
CC(C)N(C=Nc1ccn([C@H]2C[C@H](CO)[C@@H](CO)O2)c(=O)n1)C(C)C	TIBO-resistant	-	MT-4	XTT	-	4 µM
CNC(O)c1cnc(Nc2ccc(C#N)cc2)nc1Nc1c(C)cc(/C=C/C#N)cc1C	IIIB	-	MT-4	-	-	0.01047 µM
Cc1cccnc1CN(CCCCN)Cc1nccc2cc(Br)ccc12	-	-	Jurkat cells	flow cytometry	-	0.039 µM
Cc1cn([C@@H]2O[C@H](CO)[C@@H](O)[C@@H]2O)c(=O)n(CCF)c1=O	IIIB	-	CEM	microscopy	-	>400 µg/mL
CCC1CN(C(=O)c2ccccc2)CCN1C(=O)C(=O)c1c[nH]c2cccc(F)c12	LAI	-	HeLa	luciferase / reporter gene	pseudotyped	0.0071 µM
Cc1cccc(CNc2nc3cc(C(=O)NC(C)(CO)CO)ccc3n2C2CCCCCC2)c1F	-	-	H9	syncytia	20% FBS	0.4 µM
CC(=O)c1ccc(-c2nc3ncc(Br)cc3[nH]2)cc1	IIIB	-	MT-4	MTT	-	>28 µM
CC(C)C1=C2[C@H]3CC[C@@H]4[C@@]5(C)CC[C@H](OC(=O)[C@H]6C[C@@H](C(=O)O)C6(C)C)C(C)(C)[C@@H]5CC[C@@]4(C)[C@]3(C)CC[C@@]2([C@@H](O)CNC(=O)C(C)(C)NC(=O)c2ccncn2)CC1=O	92HT599	-	MT-2	p24 / ELISA	-	<1 µM
NC(N)=NCCCNC(=O)c1cc2c(cn1)[nH]c1ccccc12	IIIB	-	MT-4	cytopathic effect	-	≥50 µM
OC[C@H]1O[C@@H]2O[C@H]3[C@H](O)[C@@H](O)[C@@H](O[C@H]4[C@H](O)[C@@H](O)[C@@H](O[C@H]5[C@H](O)[C@@H](O)[C@@H](O[C@H]6[C@H](O)[C@@H](O)[C@@H](O[C@H]7[C@H](O)[C@@H](O)[C@@H](O[C@H]8[C@H](O)[C@@H](O)[C@@H](O[C@H]1[C@H](O)[C@H]2O)O[C@@H]8CO)O[C@@H]7CO)O[C@@H]6CO)O[C@@H]5CO)O[C@@H]4CO)O[C@@H]3CO	IIIB	-	SupT1 + Sup-T1	RT activity	-	>630 µM
Brc1cnc2nc(-c3ccoc3)[nH]c2c1	IIIB	-	MT-4	MTT	-	>20 µM
CC1CN(C(=O)c2ccccc2)CCN1C(=O)C(=O)c1c[nH]c2cccc(F)c12	JR-FL	-	HeLa	luciferase / reporter gene	pseudotyped	0.00037 µM
Cc1cc(CNC(=O)c2nc3n(c(=O)c2O)[C@@H](C)COC[C@@H]3N(C)C(=O)C(=O)N(C)C)ccc1F	-	N155H	HeLa P4-2	single cycle	-	0.002 µM
CC(C)C1=C2[C@H]3CC[C@@H]4[C@@]5(C)CC[C@H](OC(=O)[C@H]6C[C@@H](C(=O)O)C6(C)C)C(C)(C)[C@@H]5CC[C@@]4(C)[C@]3(C)CC[C@@]2(CC(=O)N[C@@H](CNC(=O)c2ccc(Cl)cc2)C(C)O)CC1=O	92HT599	-	MT-2	p24 / ELISA	-	<1 µM
CC1CN(C(=O)C(=O)c2c[nH]c3cccc(F)c23)CC(C)N1C(=O)c1ccccc1	LAI	-	HeLa	luciferase / reporter gene	pseudotyped	0.0484 µM
Cc1cc(/C=C/C#N)cc(C)c1Nc1nc(Nc2ccc(C#N)cc2)ncc1C(O)OCCO	PSI (IIIB)	-	MT-4	-	-	269 µM
Cc1ccc(CNC[C@H](O)[C@@]23CC[C@]4(C)[C@H](CC[C@@H]5[C@@]6(C)CC[C@H](OC(=O)[C@H]7C[C@@H](C(=O)O)C7(C)C)C(C)(C)[C@@H]6CC[C@]54C)C2=C(C(C)C)C(=O)C3)cc1	92HT599	-	MT-2	p24 / ELISA	-	<1 µM
C=C1CC[C@@H](OC(C)=O)[C@@]2(C)CCC3[C@](C)(CC[C@]3(O)C(C)C)C[C@]12O	IIIB	-	MT-2	MTT	-	0.794 µM
COc1cc2c(c(O)c1OC)-c1c(cc(OC)c(OC)c1O)C[C@H](C)[C@H](C)C2	IIIB	-	MT-4	cytopathic effect / MTT	-	27.6 µM
CC1CN(C(=O)c2ccccc2)C(C)CN1C(=O)C(=O)c1c[nH]c2cccc(F)c12	JR-FL	-	HeLa	luciferase / reporter gene	pseudotyped	0.676 µM
NC(=O)c1cc2c([nH]c3ccccc32)c(-c2ccc(CO)o2)n1	IIIB	-	C8166	syncytia	-	0.38 µM
CC(CO)NC(=O)c1ccc2c(c1)nc(NCc1ccccc1)n2C1CCCCCC1	-	-	H9	syncytia	20% FBS	1.5 µM
CC(C)C1=C2[C@H]3CC[C@@H]4[C@@]5(C)CC[C@H](OC(=O)[C@H]6C[C@@H](C(=O)O)C6(C)C)C(C)(C)[C@@H]5CC[C@@]4(C)[C@]3(C)CC[C@@]2([C@@H](O)CNC(=O)C(C)(C)NC(=O)c2ccc(Cl)cc2OCCN2CCS(=O)(=O)CC2)CC1=O	92HT599	-	MT-2	p24 / ELISA	-	<1 µM
CC(CO)(CO)NC(=O)c1ccc2c(c1)nc(NCc1cccc3ccccc13)n2C1CCCCCC1	-	-	H9	syncytia	20% FBS	1 µM
Cc1cc(/C=C/C#N)cc(C)c1Nc1nc(Nc2ccc(C#N)cc2)ncc1C(O)c1scnc1Br	PSI (IIIB)	-	MT-4	-	-	550 µM
Cc1nc(C(=O)NCCCN=C(N)N)cc2c1[nH]c1ccccc12	IIIB	-	MT-4	cytopathic effect	-	≥50 µM
O=C(O)C(=O)/C=C(\O)c1cn(Cc2ccc(F)cc2)c2ccc(OCc3ccc(F)cc3)cc2c1=O	NL4-3	-	TZM-bl	p24	-	1 µM
Cc1cccnc1CN(CCCCN)Cc1nccc2cc(F)ccc12	-	-	Jurkat cells	flow cytometry	-	0.00064 µM
Cc1cc(CNC(=O)c2nc3n(c(=O)c2O)[C@@H](C)COC[C@H]3N(C)C(=O)C(=O)N(C)C)ccc1F	-	G140S/Q148H	HeLa P4-2	single cycle	-	0.012 µM
COc1cccc2[nH]cc(C(=O)C(=O)N3CCN(C(=O)c4ccccc4)C[C@H]3C)c12	JR-FL	-	HeLa	luciferase / reporter gene	pseudotyped	0.00058 µM
Cc1cn([C@H]2C[C@H](F)[C@@H](CO)O2)c(=O)n(C)c1=O	IIIB	-	CEM	microscopy	-	>400 µg/mL
Cc1cc(/C=C/C#N)cc(C)c1Nc1nc(Nc2ccc(C#N)cc2)ncc1C(O)OCc1cccnc1	L100I + K103N	-	MT-4	-	-	0.263 µM
COc1cccc2[nH]cc(C(=O)C(=O)N3CCN(C(=O)c4ccccc4)C[C@@H]3C)c12	JR-FL	-	HeLa	luciferase / reporter gene	pseudotyped	0.00058 µM
C=C1[C@H](CO)OC[C@@H]1n1cnc2c(=O)[nH]c(N)nc21	-	-	-	-	-	>100 µM
Cc1cccc(CNc2nc3cc(C(=O)NC(C)(CO)CO)ccc3n2C2CCCCCC2)c1	-	-	H9	syncytia	2% FBS	0.1 µM
O=c1nc(N=CN2CCOCC2)ccn1[C@H]1C[C@H](CO)[C@@H](CO)O1	TIBO-resistant	-	MT-4	XTT	-	9.4 µM
Cc1cc(/C=C/C#N)cc(C)c1Nc1nc(Nc2ccc(C#N)cc2)ncc1C(O)n1ccnc1	K103N + Y181C	-	MT-4	-	-	0.02291 µM
COc1cccc2[nH]cc(C(=O)C(=O)N3CCN(C(=O)c4ccccc4)CC3C)c12	LAI	-	HeLa	luciferase / reporter gene	pseudotyped	0.00157 µM
Cc1cc(/C=C/C#N)cc(C)c1Nc1nc(Nc2ccc(C#N)cc2)ncc1C(O)C(C)C	IIIB	-	MT-4	-	-	0.1 µM
CC(C)C1=C2[C@H]3CC[C@@H]4[C@@]5(C)CC[C@H](OC(=O)[C@H]6C[C@@H](C(=O)O)C6(C)C)C(C)(C)[C@@H]5CC[C@@]4(C)[C@]3(C)CC[C@@]2([C@@H](O)CNC(=O)c2ccc(Cl)cc2OCCN(C)C)CC1=O	92HT599	-	MT-2	p24 / ELISA	-	<1 µM
CC(CO)NC(=O)c1ccc2c(c1)nc(NCc1cccc3ccccc13)n2C1CCCCCC1	-	-	H9	syncytia	20% FBS	1 µM
Nc1ccc2c(O)c(Br)c(S(=O)(=O)O)cc2c1Br	89.6	-	PBMC	p24	-	~125 µM

ECn is the concentration giving n% inhibition of infection, replication or growth. An empty or dashed field is not shown.